Values from PubChem BioAssay AID504761 (Drosophila RNAi Screening Center, 2011).
Assay: 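Fly genes whose silencing reduces dengue virus type 2 infection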 (primary screen). Cell system: D.Mel-2 cells from Drosophila. Reagent: long dsRNA against Drosophila genes. Conditions: infection with dengue virus type 2; dose and infection time not stated. Measurement: 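Cells stained for dengue envelope protein and imaged; percent of infected cells per well on duplicate plates, ranked by infection, with stained nuclei counted for cell number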. Reading the numbers: infection score: higher = more virus-infected cells; cell count: higher = more cells in the well. Rule for the call: 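Low infection ranks in the two replicates (chance level up to 0.065) followed by a retest with a 1.5-fold or larger significant decrease, p below 0.05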. Meaning of the calls: active = confirmed: knock-down lowers infection; inactive = not picked or not confirmed.
The deposit covers about 22,000 reagents; this is an unselected part of those that have a named target and a result. Over the whole deposit, 116 (0.52%) got an active call. 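Calls depend on retest data that are not deposited; infection was ranked per plate without normalising between plates; the unit of the infection score is not given.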 The raw values are shown without normalisation. A number with no mark means an inactive call. Not stated in the record: the amount of reagent, the time to read-out.

gene	amplicon	infection score, replicate 1	infection score, replicate 2	cell count, replicate 1	cell count, replicate 2
Pcif1	DRSC11655	20.2	20.8	2197	5642
Pcif1	DRSC24012	5.24	2.85	6466	6487
CG5731	DRSC02883	8.08	3.68	6278	6149
CG5731	DRSC25969	2.5	5.79	6004	6428
Vm34Ca	DRSC03475	2.14	2.04	6630	6609
Vm34Ca	DRSC25260	2.26	6.37	5713	5933
mey	DRSC14468	7.91	5.17	417	6091
mey	DRSC27364	12.5	5.43	6811	6410
CG7848	DRSC07050	11.8		6264	264
CG11581	DRSC19407		10.8	447	3143
Ugt301D1	DRSC02021	4.67	6.37	5721	5873
pcs	DRSC07042	5.31	5.34	5709	6409
CG10165	DRSC02017	11.8	15.2	6609	6595
mwh	DRSC08382	2.72	0.6	5845	6161
mwh	DRSC27439	7.32	4.91	6913	6481
LanA	DRSC11207	4.22	8.13	6849	6749
Cdc42	DRSC20228	13.5	5.63	6460	6089
Cdc42	DRSC25134	12.7	4.94	6811	6156
sala	DRSC03605	10.4	7.46	5742	5747
sala	DRSC28864	7.45	8.58	1974	1713
ranshi	DRSC16564	4.39	4.79	6212	6299
ranshi	DRSC29605		19.6	382	4426
CG6015	DRSC15948	6.36	3.84	4154	4401
CG6015	DRSC28104	3.93	9.68	1068	899
Cyp9b1	DRSC07389	2.12	10.6	5984	6507
Cyp9b1	DRSC24745	0.75	0.52	6426	6313
C1GalTA	DRSC03246	18.8	27.4	1657	5800
CG31788	DRSC01630	1.2	2.23	6088	5916
RpL15	DRSC20963	1.08	1.66	1299	1262
CG1671	DRSC06617	6.04	13.1	5381	6130
CG10265	DRSC05986	17.8	2.38	4982	6440
CG10265	DRSC21680	2.35	6.07	6055	6574
mtm	DRSC03576	1.69	3.05	4138	4518
Alg3	DRSC04700	23	24.8	6785	6245
CG2187	DRSC15425	6.12		6126	407
CG2187	DRSC25548	2.77	3.29	6322	6077
CG32121	DRSC09265	2.53	1.61	6484	5980
ImpE1	DRSC11195	1.9	0.92	6326	6197
ImpE1	DRSC11196	1.93	2.13	6111	6189
ImpE1	DRSC24590	0.52	8.29	6522	6636
CG11360	DRSC17134	7.24	1.31	6051	5942
CG14205	DRSC19560	5.31	2.12	6192	6284
CG14205	DRSC28253	15.5	8.7	5816	4710
CG33454	DRSC22914	1.62	10.5	6913	7122
CG33454	DRSC26767	6.41	1.2	5945	6166
CG12728	DRSC17883	17.5	6.7	1832	6850
pkm	DRSC19674	8.4	0.83	6301	6486
pkm	DRSC29050	21	17.7	3833	5011
Ipp	DRSC16718	0.75	2.99	6559	6428
Ipp	DRSC26058	5.39	3.11	6086	6083
NKAIN	DRSC04531	9.14	25.8	6521	5919
NKAIN	DRSC22470	2.54	11.7	6693	6393
NKAIN	DRSC29918	23.7	9.29	6195	6480
Ublcp1	DRSC14149	9.94	1.86	6487	269
Ublcp1	DRSC28057	13.1	9.7	4851	6269
dtr	DRSC01847	0.39	0.28	6846	6856
RNaseX25	DRSC11259	14.9	18	4562	5086
RNaseX25	DRSC29835	18.5	24.1	6247	5848

Laid out differently: entries from further up.
Ugt301D1 [DRSC02021]
- infection score, replicate 1: 4.67
- infection score, replicate 2: 6.37
- cell count, replicate 1: 5721
- cell count, replicate 2: 5873

pcs [DRSC07042]
- infection score, replicate 1: 5.31
- infection score, replicate 2: 5.34
- cell count, replicate 1: 5709
- cell count, replicate 2: 6409

CG10165 [DRSC02017]
- infection score, replicate 1: 11.8
- infection score, replicate 2: 15.2
- cell count, replicate 1: 6609
- cell count, replicate 2: 6595

mwh [DRSC08382]
- infection score, replicate 1: 2.72
- infection score, replicate 2: 0.6
- cell count, replicate 1: 5845
- cell count, replicate 2: 6161

mwh [DRSC27439]
- infection score, replicate 1: 7.32
- infection score, replicate 2: 4.91
- cell count, replicate 1: 6913
- cell count, replicate 2: 6481

LanA [DRSC11207]
- infection score, replicate 1: 4.22
- infection score, replicate 2: 8.13
- cell count, replicate 1: 6849
- cell count, replicate 2: 6749

Cdc42 [DRSC20228]
- infection score, replicate 1: 13.5
- infection score, replicate 2: 5.63
- cell count, replicate 1: 6460
- cell count, replicate 2: 6089

Cdc42 [DRSC25134]
- infection score, replicate 1: 12.7
- infection score, replicate 2: 4.94
- cell count, replicate 1: 6811
- cell count, replicate 2: 6156

sala [DRSC03605]
- infection score, replicate 1: 10.4
- infection score, replicate 2: 7.46
- cell count, replicate 1: 5742
- cell count, replicate 2: 5747

sala [DRSC28864]
- infection score, replicate 1: 7.45
- infection score, replicate 2: 8.58
- cell count, replicate 1: 1974
- cell count, replicate 2: 1713
